In paper PMC8207647:

How the values were obtained:
Assay in all cases: purified protein
Conditions in all cases: O2 co-substrate, pH 7.5 sodium phosphate 50 mM, 35 °C
COc1cccc(CO)c1 = test system: COc1cccc(CO)c1
OCc1ccccc1 = test system: OCc1ccccc1
O=Cc1ccc(C=O)o1 = test system: O=Cc1ccc(C=O)o1
O=C(O)c1ccc(CO)o1 = test system: O=C(O)c1ccc(CO)o1
COc1ccc(CO)cc1OC = test system: COc1ccc(CO)cc1OC
O=Cc1ccc(CO)o1 = test system: O=Cc1ccc(CO)o1

Substance	Km (COc1cccc(CO)c1)	kcat (COc1cccc(CO)c1)	kcat/Km (COc1cccc(CO)c1)	Km (OCc1ccccc1)	kcat (OCc1ccccc1)	kcat/Km (OCc1ccccc1)	Km (O=Cc1ccc(C=O)o1)	kcat (O=Cc1ccc(C=O)o1)	kcat/Km (O=Cc1ccc(C=O)o1)	Km (O=C(O)c1ccc(CO)o1)	kcat (O=C(O)c1ccc(CO)o1)	kcat/Km (O=C(O)c1ccc(CO)o1)	Km (COc1ccc(CO)cc1OC)	kcat (COc1ccc(CO)cc1OC)	kcat/Km (COc1ccc(CO)cc1OC)	Km (O=Cc1ccc(CO)o1)	kcat (O=Cc1ccc(CO)o1)	kcat/Km (O=Cc1ccc(CO)o1)
FoxAAO (Fusarium oxysporum f. sp. lycopersici 4287)	6.7 ± 0.59 mM	34 s⁻¹	5100 M⁻¹ s⁻¹	–	–	–	–	–	–	–	–	–	–	–	–	–	–	–
FgrAAO (Fusarium graminearum PH-1)	6.5 ± 1.5 mM	52 s⁻¹	8000 M⁻¹ s⁻¹	86 ± 12 mM	37 s⁻¹	430 M⁻¹ s⁻¹	10 ± 2.9 mM	3.6 s⁻¹	360 M⁻¹ s⁻¹	4.4 ± 0.90 mM	3.8 s⁻¹	860 M⁻¹ s⁻¹	3.7 ± 0.75 mM	41 s⁻¹	11000 M⁻¹ s⁻¹	14 ± 2.6 mM	29 s⁻¹	2100 M⁻¹ s⁻¹
